The exact form of at least one protein or probe is not confirmed.

Series [1] deals with Sa GlnR(1-87)K48H (UniProt Q53687). In words: fluorescence polarization. Conditions: 5 mM Mg2+; FP: 25 mM Tris pH 7.5, 100 mM NaCl, 5 mM MgCl2, 1 nM fluoresceinated DNA; temperature not stated; recombinant protein; residues 1-87. A general note: Polarisation of emitted light reports the rotation of a fluorescent probe.
For series [2], the target named is Sa GlnR(1-87)K48R (UniProt Q53687). In words: fluorescence polarization. Conditions: 5 mM Mg2+; FP: 25 mM Tris pH 7.5, 100 mM NaCl, 5 mM MgCl2, 1 nM fluoresceinated DNA; temperature not stated; recombinant protein; residues 1-87.

On to “CGTGTCAGATAATCTGACACG (double strand) [21-mer glnR operator, fluoresceinated]”, for which the Kd (as a rule, a measure of binding affinity in units of concentration) came out at 11.6 nM in series [1] and 8 nM in series [2].

The values above are taken from article PMC9249791, “Molecular dissection of the glutamine synthetase-GlnR nitrogen regulatory circuitry in Gram-positive bacteria” (Nature Communications, 2022).
